Laboratory results: US8354451B2, “Treatment of microbial infections with compounds that inhibit 4-hydroxyphenylpyruvate dioxygenase” (The UWM Research Foundation, Inc., priority 2009, dated 2013)

Columns and labels:
[1] = system: B. cenocepacia MH1J in RAW264.7 macrophages; test: Intracellular killing by macrophages, gentamicin protection assay; conditions: NTBC 10 and 100 mM; 1, 3, 24 and 48 h post-infection
[2] = system: RAW 264.7 macrophages infected with B. cenocepacia C5424; test: Macrophage phagolysosomal fusion assay (LYSOTRACKER colocalization); format: cell-based, murine; conditions: bacteria grown with 10 and 100 μM NTBC versus mock, p<0.05

O=C1CCCC(=O)C1C(=O)c1ccc(C(F)(F)F)cc1[N+](=O)[O-] [NTBC, 2-(2-nitro-4-trifluoromethylbenzoyl)-1,3-cyclohexanedione]
intracellular colony forming units, treated vs. untreated macrophages [1]: No differences
ability of bacteria to delay phagolysosomal fusion [2]: significantly reduced ability to delay phagolysosomal fusion
